Compound potency records, mixed from different reports. Data source: NIAID ChemDB in PubChem.

Common to all: tests in culture; organism: Mycobacterium avium complex; measure: MIC

Conditions beyond the fields shown may differ between rows. Two numbers with a dash give a range or band.

{"SMILES": "COc1cccc(SCc2cnc3nc(N)nc(N)c3c2C)c1", "strain or isolate": "NJ3404", "result": "≤0.13 µg/mL"}
{"SMILES": "CCc1nc2ccc(Cl)cn2c1C(=O)NCc1ccc(N2CCC3(CC2)OC[C@H](C)O3)c(F)c1", "strain or isolate": "Clinical isolate 224", "read by": "MTT", "result": "≤0.03 µg/mL"}
{"SMILES": "CN[C@@H]1[C@@H](O)C(O[C@@H]2[C@@H](O)[C@H](OC3O[C@H](CN)[C@@H](O)[C@H](O)[C@H]3O)[C@@H](N)C[C@H]2NC(=O)[C@@H](O)CN)OC[C@]1(C)O", "strain or isolate": "T38", "result": "25 µg/mL"}
{"SMILES": "Cc1c(CN2CCN(C)CC2)cc(-c2ccc(Cl)cc2)n1-c1ccc(Cl)cc1", "strain or isolate": "103317", "result": "0.4 µg/mL"}
{"SMILES": "CC(C)(C)NC(=O)OCCN=c1ssc2ccccc12", "strain or isolate": "ISS 486", "result": "4 µg/mL"}
{"SMILES": "CC[C@H]1OC(=O)[C@H](C)[C@@H](O[C@H]2C[C@@](C)(OC)[C@@H](OC(C)=O)[C@H](C)O2)[C@H](C)[C@@H](O[C@@H]2O[C@H](C)C[C@H](N(C)C)[C@H]2OC(=O)NN)C(C)(O)C[C@@H](C)/C(=N\\OCCCC2CCCCC2)[C@H](C)[C@@H](O)[C@]1(C)O", "strain or isolate": "20096 (clarithromycin-resistant)", "result": "3.13 µg/mL"}
{"SMILES": "CC[C@H]1OC(=O)[C@H](C)[C@@H](O[C@H]2C[C@@](C)(OC)[C@@H](O)[C@H](C)O2)[C@H](C)[C@@H](O[C@@H]2O[C@H](C)C[C@H](N(C)C)[C@H]2O)[C@](C)(O)C[C@@H](C)CN(C)[C@H](C)[C@@H](O)[C@]1(C)O", "strain or isolate": "K", "result": "8 µg/mL"}
{"SMILES": "COc1cc(-c2ccccc2)ccc1NCc1cnc2nc(N)nc(N)c2c1C", "strain or isolate": "NJ3404", "result": "≤0.13 µg/mL"}
{"SMILES": "CC(C)N=C(N)/N=C(\\N)NOCCCOc1cc(Cl)c(Cl)cc1Cl", "strain or isolate": "1409", "result": "32 µg/mL"}
{"SMILES": "CCCCCCCCOC1O[C@@H](C(O)COC2O[C@@H](C(O)CO)[C@H](O)[C@H]2O)[C@H](O)[C@H]1O", "strain or isolate": "NJ304", "result": ">128 µg/mL"}
{"SMILES": "CCNC(=O)OCCn1sc2ccccc2c1=S", "strain or isolate": "AN1", "result": "4 µg/mL"}
{"SMILES": "CO[C@H]1/C=C/O[C@@]2(C)Oc3c(C)c(O)c4c(O)c(c5c(c4c3C2=O)NC2(CCN(CC(C)C)CC2)N=5)=NC(=O)/C(C)=C\\C=C\\[C@H](C)[C@H](O)[C@@H](C)[C@@H](O)[C@@H](C)[C@H](OC(C)=O)[C@@H]1C", "strain or isolate": "1317-2", "result": "0.25 µg/mL"}
{"SMILES": "CCc1c(CNc2cc(C)ccc2OC)cnc2nc(N)nc(N)c12", "strain or isolate": "NJ211", "result": "≤0.13 µg/mL"}
{"SMILES": "CCCCCCCCO[C@@H]1O[C@H]([C@@H](COC)O[C@H]2O[C@H](COC(=O)c3ccccc3)[C@@H](OC(=O)c3ccccc3)[C@@H]2OC(=O)c2ccccc2)[C@H](OC)[C@H]1OC", "strain or isolate": "NJ168", "result": ">128 µg/mL"}
{"SMILES": "CC[C@H]1OC(=O)[C@H](C)[C@@H](O[C@H]2C[C@@](C)(OC)[C@@H](OC(C)=O)[C@H](C)O2)[C@H](C)[C@@H](O[C@@H]2O[C@H](C)C[C@H](N(C)C)[C@H]2OC(=O)NNCc2ccncc2)C(C)(O)C[C@@H](C)/C(=N\\OCCCC2CCCCC2)[C@H](C)[C@@H](O)[C@]1(C)O", "strain or isolate": "20096 (clarithromycin-resistant)", "result": "0.78 µg/mL"}
{"SMILES": "CC(C)NC(=O)OCCn1sc2ccccc2c1=O", "strain or isolate": "AN2", "result": ">32 µg/mL"}
{"SMILES": "CO[C@H]1/C=C/O[C@@]2(C)Oc3c(C)c(O)c4c(=O)c(c5oc6cc(N7CCN(CC(C)C)CC7)cc(=O)c6nc5c4c3=C2O)NC(=O)/C(C)=C\\C=C\\[C@H](C)[C@H](O)[C@@H](C)[C@@H](O)[C@@H](C)[C@H](OC(C)=O)[C@@H]1C", "strain or isolate": "N-444", "result": "0.06 µg/mL"}
{"SMILES": "NNC(=O)c1ccncc1", "strain or isolate": "13033", "result": "0.4–0.63 µg/mL"}
{"SMILES": "CCCCCCCCO[C@@H]1O[C@H]([C@@H](COCc2ccccc2)O[C@H]2O[C@H](CO)[C@@H](O)[C@@H]2O)[C@H](OCc2ccccc2)[C@H]1OCc1ccccc1", "strain or isolate": "NJ304", "result": ">128 µg/mL"}
{"SMILES": "CCCCCCCCCCCCO/N=C1\\[C@H](C)CC(C)(O)[C@H](O[C@@H]2O[C@H](C)C[C@H](N(C)C)[C@H]2O)[C@@H](C)[C@H](OC2C[C@@](C)(OC)[C@@H](O)[C@H](C)O2)[C@@H](C)C(=O)O[C@H](CC)[C@@](C)(O)[C@H](O)[C@H]1C", "strain or isolate": "20096 (clarithromycin-resistant)", "result": "25 µg/mL"}
{"SMILES": "COc1ccc(Sc2nc(Cl)nc3nc[nH]c23)cc1OC", "strain or isolate": "NJ211", "result": ">12.8 µg/mL"}
{"SMILES": "CC[C@H]1OC(=O)[C@H](C)[C@@H](OC2C[C@@](C)(OC)[C@@H](O)[C@H](C)O2)[C@H](C)[C@@H](O[C@@H]2O[C@H](C)C[C@H](N(C)C)[C@H]2O)C(C)(O)C[C@@H](C)/C(=N\\OCCC2CCCCC2)[C@H](C)[C@@H](O)[C@]1(C)O", "strain or isolate": "20092 (clarithromycin-resistant)", "result": ">50 µg/mL"}
{"SMILES": "CCCCCCCCO[C@H]1O[C@H](CO[C@H]2O[C@H](CO)[C@@H](O)[C@@H]2O)[C@@H](OC)[C@@H]1OC", "strain or isolate": "NJ211", "result": ">128 µg/mL"}
{"SMILES": "O=c1nc(SCc2cccnc2)c2[nH]cnc2[nH]1", "strain or isolate": "NJ211", "result": ">12.8 µg/mL"}
{"SMILES": "CCCCCCCCOC1OC([C@H](CO)OC2O[C@@H](C(O)CO)[C@H](O)[C@H]2O)[C@H](O)[C@H]1O", "strain or isolate": "NJ211", "result": ">128 µg/mL"}
{"SMILES": "COc1ccccc1CSc1ccncc1", "strain or isolate": "NJ211", "result": ">12.8 µg/mL"}
{"SMILES": "CCCNC(=O)OCCn1sc2ccccc2c1=S", "strain or isolate": "ISS 486", "result": "4 µg/mL"}
{"SMILES": "Cc1ccc2nc(C)c(C(=O)NCc3ccc(C(F)(F)F)cc3)n2c1", "strain or isolate": "Clinical isolate PRV", "read by": "MTT", "result": "<0.03 µg/mL"}
{"SMILES": "CCCCCCCCO[C@@H]1OC(C(CO[C@@H]2O[C@@H]([C@H](O)CO)[C@H](O)[C@H]2O)OC(C)=O)[C@H](OC(C)=O)[C@H]1OC(C)=O", "strain or isolate": "NJ304", "result": ">128 µg/mL"}
{"SMILES": "Nc1ccc(S(=O)(=O)c2ccc(N)cc2)cc1", "strain or isolate": "DW29", "result": "64 µg/mL"}
{"SMILES": "CCCNC(=O)OCCN=c1ssc2ccccc12", "strain or isolate": "ATCC 15769", "result": "4 µg/mL"}
{"SMILES": "CCCCCCCCCCCCO/N=C1\\[C@H](C)CC(C)(O)[C@H](O[C@@H]2O[C@H](C)C[C@H](N(C)C)[C@H]2O)[C@@H](C)[C@H](O[C@H]2C[C@@](C)(OC)[C@@H](OC(C)=O)[C@H](C)O2)[C@@H](C)C(=O)O[C@H](CC)[C@@](C)(O)[C@H](O)[C@H]1C", "strain or isolate": "20096 (clarithromycin-resistant)", "result": "6.25 µg/mL"}
{"SMILES": "COc1ccc(C)c(NCc2cnc3nc(N)nc(N)c3c2C)c1", "strain or isolate": "NJ3404", "result": "≤0.13 µg/mL"}
{"SMILES": "Cc1ccn2c(C(=O)NCc3ccc4c(c3)CCO4)c(C)nc2c1", "strain or isolate": "Clinical isolate LPR", "read by": "MTT", "result": ">32 µg/mL"}
{"SMILES": "Cc1c(CN2CCN(C)CC2)cc(-c2ccccc2Cl)n1-c1cccc2ccccc12", "strain or isolate": "103317", "result": "4 µg/mL"}
{"SMILES": "CCC(=O)O[C@H]1[C@H](C)OC(O[C@H]2[C@H](C)[C@@H](O[C@@H]3O[C@H](C)C[C@H](N(C)C)[C@H]3O)C(C)(O)C[C@@H](C)/C(=N\\OCCCOc3ccccc3)[C@H](C)[C@@H](O)[C@](C)(O)[C@@H](CC)OC(=O)[C@@H]2C)C[C@@]1(C)OC", "strain or isolate": "20092 (clarithromycin-resistant)", "result": "0.78 µg/mL"}
{"SMILES": "CC(C)NC(=O)OCCn1sc2ccccc2c1=S", "strain or isolate": "ISS 486", "result": "4 µg/mL"}
{"SMILES": "COc1ccc(CSc2ccncc2)cc1", "strain or isolate": "NJ211", "result": ">12.8 µg/mL"}
{"SMILES": "CCCCCCCCO[C@@H]1O[C@@H](C(CO[C@@H]2O[C@@H](C(O)CO)[C@H](O)[C@H]2O)OC)[C@H](OC)[C@H]1OC", "strain or isolate": "NJ168", "result": ">128 µg/mL"}
{"SMILES": "Cc1cccc(CSc2ncnc3nc[nH]c23)c1", "strain or isolate": "NJ211", "result": ">12.8 µg/mL"}
{"SMILES": "CC[C@H]1OC(=O)[C@H](C)[C@@H](OC2C[C@@](C)(OC)[C@@H](O)[C@H](C)O2)[C@H](C)[C@@H](O[C@@H]2O[C@H](C)C[C@H](N(C)C)[C@H]2O)C(C)(O)C[C@@H](C)/C(=N\\OCCc2ccccc2)[C@H](C)[C@@H](O)[C@]1(C)O", "strain or isolate": "20039 (clarithromycin-susceptible)", "result": "1.56 µg/mL"}
{"SMILES": "COc1ccc(C(F)(F)F)cc1NCc1cnc2nc(N)nc(N)c2c1C", "strain or isolate": "NJ211", "result": "≤0.13 µg/mL"}
{"SMILES": "CCCCNC(=O)OCCn1sc2ccccc2c1=O", "strain or isolate": "ISS 486", "result": "16 µg/mL"}
{"SMILES": "Cc1c(CNc2ccc3c(c2)Cc2ccccc2-3)cnc2nc(N)nc(N)c12", "strain or isolate": "NJ3404", "result": "≤0.13 µg/mL"}
{"SMILES": "Cc1c(CN2CCSCC2)cc(-c2ccccc2Cl)n1-c1ccccc1Cl", "strain or isolate": "103317", "result": "8 µg/mL"}
{"SMILES": "CC[C@H]1OC(=O)[C@H](C)[C@@H](O[C@H]2C[C@@](C)(OC)[C@@H](OC(C)=O)[C@H](C)O2)[C@H](C)[C@@H](O[C@@H]2O[C@H](C)C[C@H](N(C)C)[C@H]2O)C(C)(O)C[C@@H](C)/C(=N\\OCCOc2ccccc2)[C@H](C)[C@@H](O)[C@]1(C)O", "strain or isolate": "20092 (clarithromycin-resistant)", "result": "6.25 µg/mL"}
{"SMILES": "OCCN=c1ssc2ccccc12", "strain or isolate": "AN1", "result": "2 µg/mL"}
{"SMILES": "Cc1c(CNc2ccc3ccccc3c2)cnc2nc(N)nc(N)c12", "strain or isolate": "NJ168", "result": "≤0.13 µg/mL"}
{"SMILES": "CCCCCCCCO[C@@H]1O[C@H]([C@@H](COC)O[C@H]2O[C@H](CO)[C@@H](O)[C@@H]2O)[C@H](OC)[C@H]1OC", "strain or isolate": "NJ211", "result": ">128 µg/mL"}
{"SMILES": "COc1cc(NCc2cnc3nc(N)nc(N)c3c2C)cc(C(F)(F)F)c1", "strain or isolate": "NJ168", "result": "≤0.13 µg/mL"}
{"SMILES": "CCCNC(=O)OCCn1sc2ccccc2c1=O", "strain or isolate": "AN3", "result": "16 µg/mL"}
{"SMILES": "Cc1c(CN2CCSCC2)cc(-c2ccccc2F)n1-c1cccc2ccccc12", "strain or isolate": "103317", "result": "2 µg/mL"}